Compound potency records, mixed from different reports. Data source: NIAID ChemDB in PubChem.

All rows: enzyme or target tests; organism: HIV-1; protein: Reverse transcriptase; read-out: Ki

Rows are shuffled and stem from different studies.

compound,strain,changes,method,value
Nc1ccn([C@H]2CC[C@@H](COP(=O)(O)OP(=O)(O)OP(=O)(O)O)O2)c(=O)n1,LAV,-,nucleotide incorporation,0.9 µM
[N-]=[N+]=Nc1c(F)c(F)c(C(=O)CSc2nc3c(ncn3[C@H]3C[C@H](O)[C@@H](COP(=O)(O)OP(=O)(O)OP(=O)(O)O)O3)c3nccn23)c(F)c1F,-,-,radiometric,7.4 µM
Cc1cn([C@H]2CC[C@@H](COP(=O)(O)OP(=O)(O)OP(=O)(O)O)O2)c(=O)[nH]c1=O,LAV,-,nucleotide incorporation,0.09 µM
Cc1cn([C@H]2CC[C@@H](COP(=O)(O)OP(=O)(O)OP(=O)(O)O)O2)c(=O)[nH]c1=O,-,RT-K65R,nucleotide incorporation,>50 µM
C=Cc1nc(SC)nc(N(C)C)c1Cl,-,-,nucleotide incorporation / radiometric,90 µM
O=C(CSc1nc2c(ncn2[C@H]2C[C@H](O)[C@@H](COP(=O)(O)OP(=O)(O)OP(=O)(O)O)O2)c2nccn12)c1ccc(F)cc1,-,-,radiometric,10 µM
CN(C)c1nc(Cc2c(F)cccc2F)cc(=O)[nH]1,-,Y181I,nucleotide incorporation,3 µM
Nc1ccn([C@@H]2CS[C@H](COP(=O)(O)OP(=O)(O)OP(=O)(O)O)O2)c(=O)n1,-,-,nucleotide incorporation,0.05 µM
CCC(c1nc(N(C)C)[nH]c(=O)c1C)c1c(F)cccc1F,-,Y188L,nucleotide incorporation,>20 µM
Cc1c(Cc2ccccc2)nc(SCCCCO)[nH]c1=O,-,RT-Y188L,-,58 µM
Cc1cc(C)cc(S(=O)(=O)c2c(C(=O)NCCn3cccc3)[nH]c3ccc(Cl)c(F)c23)c1,-,K103N,RT activity / nucleotide incorporation,0.17 µM
O=c1ccn([C@H]2C[C@H](O)[C@@H](COP(=O)(O)OP(=O)(O)OP(=O)(O)O)O2)c(=O)[nH]1,LAV,-,nucleotide incorporation,2.5 µM
Cc1cn([C@H]2CC[C@@H](COP(=O)(O)OP(=O)(O)OP(=O)(O)O)O2)c(=O)[nH]c1=O,IIIB,RT-1(IIIB),nucleotide incorporation / radiometric,0.025 µM
CCC(CC12CC3CC(CC(C3)C1)C2)Nc1nc2c([nH]1)c(=O)n(C)c(=O)n2C,-,-,RT activity / radiometric,>200 µM
Nc1nc2c(ncn2[C@H]2CC[C@@H](COP(=O)(O)OP(=O)(O)OP(=O)(O)O)O2)c(=O)[nH]1,IIIB,RT-1(IIIB),nucleotide incorporation / radiometric,0.0067 µM
Cn1c(=O)c2[nH]c(NCC(O)C34CC5CC(CC(C5)C3)C4)nc2n(C)c1=O,-,-,RT activity / radiometric,>200 µM
[N-]=[N+]=Nc1ccc(C(=O)CSc2nc3c(ncn3[C@H]3C[C@H](O)[C@@H](COP(=O)(O)OP(=O)(O)OP(=O)(O)O)O3)c3nccn23)cc1,-,-,radiometric,8 µM
Cc1cc(C)cc(S(=O)(=O)c2c(C(=O)NCCOc3ccccc3)[nH]c3ccc(Cl)c(F)c23)c1,-,WT,RT activity / nucleotide incorporation,0.003 µM
O=P(O)(O)OP(=O)(O)O,-,RT-Y115F,nucleotide incorporation / radiometric,290 µM
Nc1ncnc2c1ncn2[C@@H]1O[C@H](COP(=O)(O)OP(=O)(O)OP(=O)(O)O)[C@H]1CO,-,-,-,0.85 µM
Cc1cc(C)cc(S(=O)(=O)c2c(C(N)=O)[nH]c3ccc(Cl)cc23)c1,-,-,nucleotide incorporation / radiometric,0.0003 µM
C=Cc1cc(N(C)C)nc(SCc2ccc(OC)cc2)n1,-,-,nucleotide incorporation / radiometric,325 µM
NCCCCNc1nc(Cc2ccccc2)cc(=O)[nH]1,-,RT-L100I,-,95 µM
Cc1cc(C)cc(S(=O)(=O)c2c(C(N)=O)[nH]c3ccc(F)c(F)c23)c1,WT,-,nucleotide incorporation / radiometric,0.0022 µM

The first 2 rows once more:

compound,strain,changes,method,value
Nc1ccn([C@H]2CC[C@@H](COP(=O)(O)OP(=O)(O)OP(=O)(O)O)O2)c(=O)n1,LAV,-,nucleotide incorporation,0.9 µM
[N-]=[N+]=Nc1c(F)c(F)c(C(=O)CSc2nc3c(ncn3[C@H]3C[C@H](O)[C@@H](COP(=O)(O)OP(=O)(O)OP(=O)(O)O)O3)c3nccn23)c(F)c1F,-,-,radiometric,7.4 µM

An empty or dashed field is not shown.